Measured values from several laboratories, pooled; numbers as filed in NIAID ChemDB.

Common to all: whole-cell or culture tests

Inhibition is in % at the dose shown (toxicity tests: loss of growth or viability).

SMILES	changes	species	endpoint	tested at	strain or isolate	cell line	read by	result
Nc1nc(N)c(N)c(Cl)n1	-	Influenza B virus	EC50	-	B/GIFU/2/73	MDCK	plaque count	>630 µM
O=c1[nH]c(=O)n([C@@H]2O[C@H](CO)[C@@H](O)[C@@H]2O)cc1/C=C/Br	-	Varicella zoster virus	EC50	-	Oka penciclovir-resistant/A	HEL	cytopathic effect	0.0003 µM
CCN=C(N)c1ccc(N2CCN(c3ccccc3)CC2)cc1	-	Pneumocystis carinii	inhibition	0.1 µg/mL	-	-	-	61%
CCCc1cc(=O)oc2cc(OC(=O)C(C)(C)C)c3c(c12)OC(C)(C)C=C3	-	Measles virus	EC50	-	MO6	CV-1	cytopathic effect	>100 µg/mL
Cc1ccc(S(=O)(=O)O)cc1.N/C(=N\N=C\c1cccc2c([N+](=O)[O-])cccc12)NO	-	Adenovirus	EC50	-	WT 300 (TYPE 5)	A549	plaque count	3.2 µM
CCOC(=O)c1sc2cc(-c3ccc(F)cc3)oc(=O)c2c1N	-	Trichophyton mentagrophytes	MIC	-	A-280	-	-	>100 µg/mL
CCc1nc2cc(F)ccn2c1C(=O)NCc1ccc(C2CCN(c3ccc(C)cc3)CC2)cc1F.Cl	-	Mycobacterium avium	inhibition	0.0054 µM	-	-	fluorescence	85%
CC=NC(=N)c1nc(-c2cccc(OC)c2)n(COCCO)n1	-	Semliki Forest virus	EC50	-	-	VERO	cytopathic effect	>100 µg/mL
CCC(CC)O[C@@H]1C=C(C(=O)O)C[C@H](N)[C@H]1NC(C)=O	-	Influenza B virus	EC50	-	Isolate C17C	MDCK	plaque count	0.055 µg/mL
O=[N+]([O-])c1ccc(Cn2cnc3c(Nc4cccc(F)c4)nc(C(F)(F)F)nc32)cc1	-	Rhinovirus	EC50	-	Serotype 4	M-HELA	plaque count	>100 µM
Nc1ccn(C[C@@H](CO)OCP(=O)(O)O)c(=O)n1	-	Varicella zoster virus	EC50	-	Oka PFA-resistant/B	HEL	cytopathic effect	0.25 µM
CCOC(=O)c1cc(C#N)c2[nH]c3ccccc3n2c1=O	-	Respiratory syncytial virus	EC50	-	-	HEP-2	plaque count	15.3 µg/mL
N#CC(c1ccc(Cl)cc1)c1c(Cl)cc(-n2ncc(=O)[nH]c2=O)cc1Cl	-	Toxoplasma gondii	inhibition	1 µg/mL	RH	-	-	100%
Nc1nc2c(ncn2COC(CO)CO)c(=O)[nH]1	-	Guinea pig cytomegalovirus	EC50	-	22122	GPE	plaque count	70 µM
Nc1nc(=O)n2ccn([C@H]3C[C@H](O)[C@@H](CO)O3)c2n1	-	West Nile virus	EC50	-	-	-	-	>100 µM
C[C@H]1CN(c2ccc(CNC(=O)c3c(C(F)(F)F)nc4ccc(Cl)cn34)cc2F)CCN1c1ccc(OC(F)(F)F)cc1	-	Mycobacterium avium	inhibition	0.032 µM	-	-	fluorescence	85%
CC1(C(=O)O)CCC2(C)CCC3(C)C(=CC(=O)C4C5(C)CCC(OC(=O)C6CCCCC6C(=O)O)C(C)(C)C5CCC43C)C2C1	-	Adenovirus	inhibition	30 µM	TYPE 5	-	virus yield	85%
Nc1ncnc2c1ncn2[C@@H]1C=C(CO)[C@@H](O)[C@H]1O	-	Vesicular stomatitis virus	EC50	-	-	E6SM	cytopathic effect	7 µg/mL
COc1c(Cl)nc(N)nc1NCC1(CO)CC(CCc2ccccc2)C1	-	Influenza B virus	EC50	-	B/GIFU/2/73	MDCK	plaque count	0.16–0.8 µM
N#CC1C(c2ccc(Cl)cc2)Nc2ccccc2S1(=O)=O	-	Human herpesvirus 7	EC50	-	-	SupT1	flow cytometry	5.7 µg/mL
CCCc1cc(=O)oc2cc(OS(=O)(=O)c3ccc(C)cc3)cc(O)c12	-	Measles virus	EC50	-	MO2	CV-1	cytopathic effect	7 µg/mL
Nc1nc(=O)n2ccn([C@@H]3O[C@H](CO)[C@@H](O)[C@H]3O)c2n1	-	Dengue virus	EC50	-	TYPE 2	-	-	>100 µM
N#Cc1cc(NC(=O)c2ccccc2)c(=O)n2c1[nH]c1ccccc12	-	Mumps virus	EC50	-	ECXH-3-11	VERO	plaque count	0.6 µg/mL
CC=NC(=N)c1nc(-c2cccc(OC)c2)n(C/C=C/c2ccccc2)n1	-	Reovirus	EC50	-	TYPE 1	VERO	cytopathic effect	>40 µg/mL
CCOC(=O)c1sc(SC)cc1-c1ccc(-c2cccnc2)cc1	-	Trichophyton mentagrophytes	MIC	-	A-280	-	-	25 µg/mL
Nc1nc2c(ncn2COC(CO)CO)c(=O)[nH]1	-	Cytomegalovirus	inhibition	1 µM	-	HEL	-	97%
Nc1nc(Cl)cc(NCC2(CO)CC(O)C2)n1	-	Influenza B virus	EC50	-	B/GIFU/2/73	MDCK	plaque count	>120 µM
Cc1nn2cc(F)ccc2c1C(=O)NCc1ccc(N2CCN(c3ccc(OC(F)(F)F)cc3)[C@@H](C)C2)c(F)c1.Cl	-	Mycobacterium avium	inhibition	0.059 µM	-	-	fluorescence	85%
Nc1nc(Cl)cc(NCC2(CO)CC(c3ccccc3)C2)n1	-	Influenza B virus	EC50	-	B/GIFU/2/73	MDCK	plaque count	2.8–3.8 µM
N#Cc1cc(C#N)c2[nH]c3ccccc3n2c1=O	-	Respiratory syncytial virus	EC50	-	LONG	HEP-2	plaque count	1.51 µg/mL
O=c1[nH]n2c(-c3cn(-c4ccccc4)nc3-c3ccccc3)nnc2sc1=O	-	Reovirus	EC50	-	TYPE 1	VERO	cytopathic effect	>80 µg/mL
CCOC(=O)c1sc(SC)c(C(=O)OC)c1O	-	Trichophyton mentagrophytes	MIC	-	A-280	-	-	6.25 µg/mL
CN(c1cccc(F)c1)c1nc(C(F)(F)F)nc2c1ncn2Cc1cccc(F)c1	-	Rhinovirus	EC50	-	Serotype 4	M-HELA	plaque count	>10 µM
CC1=Nn2c(nnc2-c2cn(-c3ccccc3)nc2-c2ccccc2)SC1	-	Reovirus	EC50	-	TYPE 1	VERO	cytopathic effect	>16 µg/mL
CC=NC(=N)c1nc(-c2cccc(C)c2)n(COCCO)n1	-	Semliki Forest virus	EC50	-	-	VERO	cytopathic effect	>200 µg/mL
CCCCCCCCOC(=O)[C@]1(O)C[C@@H](O)[C@@H](O)[C@H](OC(=O)/C=C/c2ccc(O)c(O)c2)C1	-	Aspergillus parasiticus	MIC80	-	Speare UMIP 1142.76	-	-	1000 µg/mL
S=c1[nH]n2c(-c3cn(-c4ccccc4)nc3-c3ccccc3)nnc2s1	-	Reovirus	EC50	-	TYPE 1	VERO	cytopathic effect	>80 µg/mL
CO[C@H]1/C=C/O[C@@]2(C)Oc3c(C)c(O)c4c(O)c(c5c(c4c3C2=O)NC2(CCN(CC(C)C)CC2)N=5)=NC(=O)/C(C)=C\C=C\[C@H](C)[C@H](O)[C@@H](C)[C@@H](O)[C@@H](C)[C@H](OC(C)=O)[C@@H]1C	-	Mycobacterium avium intracellulare	MIC	-	998	-	-	0.125 µg/mL
Cc1oc(NC(=O)C(F)(F)F)c(S(=O)(=O)c2ccc(Cl)cc2)c1C	-	Human herpesvirus 6	EC50	-	Z29 (TYPE 6B)	MOLT-3	cytopathic effect	>20 µg/mL
Nc1nc(Cl)cc(NCC2(CO)CC(CCCc3ccccc3)C2)n1	-	Influenza B virus	EC50	-	B/GIFU/2/73	MDCK	plaque count	0.083–0.11 µM
CN(C)c1ncnc2c1ncn2Cc1cccc(N)c1	-	Coronavirus	EC50	-	-	M-HELA	plaque count	>50 µM
Fc1cccc(Cn2cnc3c(Nc4cccc(F)c4)nc(C(F)(F)F)nc32)c1	-	Rhinovirus	EC50	-	Serotype 28	M-HELA	plaque count	4.7 µM
Nc1nc(Cl)nc2c1ncn2[C@@H]1O[C@H](CO)[C@@H](O)[C@H]1O	-	Maedi-visna virus	EC50	-	-	-	cytopathic effect	0.15 µM
Nc1ncc(/C=N/O)c(NCC2(CO)CCC2)n1	-	Influenza B virus	EC50	-	B/GIFU/2/73	MDCK	plaque count	14–32 µM
OC[C@@H]1CC[C@H](n2cnc3c(NC4CCCCCC4)nc(Cl)nc32)O1	-	Maedi-visna virus	EC50	-	-	-	cytopathic effect	0.027 µM
CCc1nc2cc(F)ccn2c1C(=O)NCc1ccc(N2CC=C(c3ccc(OC(F)(F)F)cc3)CC2)c(F)c1.Cl	-	Mycobacterium avium	inhibition	0.0079 µM	-	-	fluorescence	85%
CCCc1cc(=O)oc2c3c(c4c(c12)OC(C)(C)[C@H](O)[C@@H]4O)O[C@H](C)[C@@H](C)[C@@H]3O	-	Measles virus	EC50	-	SA	CV-1	cytopathic effect	5 µg/mL
Cc1cn2c(C(=O)NCc3ccc(N4CCN(c5ccc(C(F)(F)F)cn5)CC4)c(C(F)(F)F)c3)c(C)nc2cc1Cl	-	Mycobacterium avium	inhibition	0.59 µM	-	-	fluorescence	85%
CCOC(=O)c1sc(SC)c(C#N)c1N	-	Trichophyton mentagrophytes	MIC	-	A-280	-	-	>100 µg/mL
N#CC1C(c2ccccc2)Nc2ccccc2S1(=O)=O	-	Human herpesvirus 6	EC50	-	Z29 (TYPE 6B)	MOLT-3	cytopathic effect	>20 µg/mL
Nc1nc2c(ncn2CCC(CO)CO)c(=O)[nH]1	-	Varicella zoster virus	EC50	-	Oka acyclovir-resistant	HEL	cytopathic effect	26.9 µM
O=C(NCc1ccc(Cl)cc1)c1c[nH]c2ccc(CCCO)cc2c1=O	-	Human cytomegalovirus	EC50	-	AD169	-	plaque count	0.8 µM
Nc1nc(=O)n2ccn([C@@H]3O[C@H](CO)C[C@H]3O)c2n1	-	Dengue virus	EC50	-	TYPE 2	-	-	>100 µM
Nc1nc2c(ncn2CCC(CO)CO)c(=O)[nH]1	-	Human herpesvirus 7	inhibition	50 µM	SB	HUMAN CORD BLOOD CELLS	antigen	29%
COc1cc(/C=C/C(C)=O)ccc1O	-	Aspergillus oryzae	MIC	-	MTCC 262	-	broth dilution	937 µM
O=C(O)P(=O)(O)O	-	Varicella zoster virus	EC50	-	Oka BVDU-resistant	HEL	cytopathic effect	49.3 µM
C=C(N=CC)c1nc(-c2ccc(C)cc2)n([C@@H]2O[C@H](CO)[C@@H](O)[C@H]2O)n1	-	Semliki Forest virus	EC50	-	-	VERO	cytopathic effect	>40 µg/mL
CCOC(=O)c1sc2cc(-c3ccc(Cl)cc3)oc(=O)c2c1N	-	Trichophyton mentagrophytes	MIC	-	A-280	-	-	>100 µg/mL
CCC(CC)[C@H](NC(C)=O)[C@@H]1[C@H](O)[C@@H](C(=O)O)C[C@H]1N=C(N)N	-	Influenza B virus	EC50	-	B/HONG KONG/5/72	MDCK	-	2.2 µM
CCCCN=C(N)c1ccc(N2CCN(c3ccccc3)CC2)cc1	-	Pneumocystis carinii	inhibition	10 µg/mL	-	-	-	92%
O=C(NCc1ccc(Cl)cc1)c1c[nH]c2ccc(CCCO)cc2c1=O	-	Rat cytomegalovirus	EC50	-	ATCC	-	plaque count	0.3 µM
CN(C)c1ncnc2c1ncn2Cc1ccc(NC(=O)C(Cc2ccccc2)NC(=O)OCc2ccccc2)cc1	-	Coronavirus	EC50	-	-	M-HELA	plaque count	>50 µM
CSc1cc(-c2ccc(F)cc2)c(C(=O)O)s1	-	Trichophyton mentagrophytes	MIC	-	A-280	-	-	50 µg/mL
CCCc1cc(=O)oc2cc(OS(=O)(=O)c3ccc(C)cc3)cc(OS(=O)(=O)c3ccc(C)cc3)c12	-	Measles virus	EC50	-	Chicago-1	CV-1	cytopathic effect	1 µg/mL
Nc1nc(Cl)cc(NCC2(O)CCC2)n1	-	Influenza B virus	EC50	-	B/GIFU/2/73	MDCK	plaque count	>130 µM
O=C(NCc1ccc(Cl)cc1)c1c[nH]c2ccc(C#CCO)cc2c1=O	-	Rat cytomegalovirus	EC50	-	ATCC	-	plaque count	0.6 µM
CN(C)c1ncnc2c1ncn2Cc1ccccc1NC(=O)C(N)Cc1ccccc1	-	Coronavirus	EC50	-	-	M-HELA	plaque count	>50 µM
CC(=O)Nc1ccc(C(=O)O)cc1	-	Pneumocystis carinii	inhibition	1 µM	-	-	-	20%
CC(C)C1=C2[C@H]3CC[C@@H]4[C@@]5(C)CC[C@H](OC(=O)CC(C)(C)C(=O)O)C(C)(C)[C@@H]5CC[C@@]4(C)[C@]3(C)CC[C@@]2([C@@H](O)CN(CCN(C)C)Cc2ccc(Cl)cc2)CC1=O	-	SIV	EC50	-	MAC251	CEM-SS + MAGIC-5A	syncytia / visual reading / single cycle	0.1 µM
CC(C)CC(N)C(=O)Nc1ccc(Cn2cnc3c(N(C)C)ncnc32)cc1	-	Coronavirus	EC50	-	-	M-HELA	plaque count	>50 µM
CCOC(=O)c1sc(SC)cc1-c1ccc(C)cc1	-	Trichophyton mentagrophytes	MIC	-	A-280	-	-	>100 µg/mL
Nc1nc(N)c2ncn(CCOCP(=O)(O)O)c2n1	-	Varicella zoster virus	EC50	-	Oka BVaraU-resistant	HEL	cytopathic effect	3 µM
CC1CCC(C(=O)N(c2cc(C#CC(C)(C)C)sc2C(=O)O)C2CCC(O)CC2)CC1	V494A	Hepatitis C virus	fold resistance	-	Con1 (gt 1b)	Huh7	luciferase	32.5
CN(C)c1ncnc2c1ncn2Cc1cccc(NC(=O)C(Cc2ccccc2)NC(=O)OCc2ccccc2)c1	-	Coronavirus	EC50	-	-	M-HELA	plaque count	>50 µM
NC(=NCc1ccccc1)c1ccc(N2CCN(c3ccccc3)CC2)cc1	-	Pneumocystis carinii	inhibition	0.1 µg/mL	-	-	-	0%
CN(C)c1ncnc2c1ncn2Cc1ccccc1NC(=O)C(Cc1ccccc1)NC(=O)OCc1ccccc1	-	Coronavirus	EC50	-	-	M-HELA	plaque count	>50 µM
N#CC1=CSc2nnc(-c3cn(-c4ccccc4)nc3-c3ccccc3)n2N=C1N	-	Reovirus	EC50	-	TYPE 1	VERO	cytopathic effect	>16 µg/mL
CC(C)C1CC(CO)(CNc2nc(N)nc(Cl)c2C=O)C1	-	Influenza B virus	EC50	-	B/GIFU/2/73	MDCK	plaque count	14–22 µM

A second listing of 4 rows from above:

SMILES | changes | species | endpoint | tested at | strain or isolate | cell line | read by | result
Nc1nc2c(ncn2COC(CO)CO)c(=O)[nH]1 | - | Guinea pig cytomegalovirus | EC50 | - | 22122 | GPE | plaque count | 70 µM
CC(C)C1CC(CO)(CNc2nc(N)nc(Cl)c2C=O)C1 | - | Influenza B virus | EC50 | - | B/GIFU/2/73 | MDCK | plaque count | 14–22 µM
CCOC(=O)c1sc(SC)c(C#N)c1N | - | Trichophyton mentagrophytes | MIC | - | A-280 | - | - | >100 µg/mL
Nc1nc(=O)n2ccn([C@@H]3O[C@H](CO)[C@@H](O)[C@H]3O)c2n1 | - | Dengue virus | EC50 | - | TYPE 2 | - | - | >100 µM

Blank or dashed fields: not listed here. A number after MIC or MFC names an inhibition level or a share of isolates. Rows are shuffled and stem from different studies. Fold resistance has wild type as its base. a–b is a range or a potency band. ECn: concentration that inhibits the pathogen or its effect by n%.